Results of unrelated studies side by side (data: NIAID ChemDB).

All rows: tests on isolated targets; agent: Hepatitis C virus

Rows are shuffled and stem from different studies. Inhibition is in % at the dose shown (toxicity tests: loss of growth or viability). ICn: concentration for n% inhibition. Blank or dashed fields: not listed here.

smiles,strain or isolate,target,method,conditions,read-out,dose,value
O=c1cc(-c2ccccc2)oc2cccc(O)c12,J4,Replicase complex,SYBR Green,,inhibition,20 µM,14.5%
CC[C@H](C)[C@H](NC(=O)[C@@H](NC(=O)[C@H](CCC(=O)O)NC(C)=O)C(c1ccccc1)c1ccccc1)C(=O)N[C@@H](CC1CCCCC1)C(=O)N[C@@H](CS)C(=O)O,,HCV NS3 protease,,,IC50,,2.4 µM
O=C(O)CCN(CCC(c1ccccc1)c1ccccc1)C(=O)[C@@H](NC(=O)[C@@H]1CCCC[C@H]1C(=O)O)c1ccccc1,,NS3/NS4A protease,,,IC50,,22 µM
O=C(NCc1ccccc1Cl)Nc1cscc1-c1nc(C(=O)O)c(O)c(=O)[nH]1,,HCV polymerase,,,IC50,,<25 µM
CC[C@H](C)[C@H](NC(=O)[C@H](CCC(=O)O)NC(=O)[C@H](CC(=O)O)NC(C)=O)C(=O)N[C@@H](CCC(=O)O)C(=O)N[C@@H](CC1CCCCC1)C(=O)N[C@@H](CS)C(=O)O,,HCV NS3 protease,,,IC50,,0.122 µM
C=CC[C@H](NC(=O)[C@@H]1CCc2c(Cl)nc(NCc3ccc(OC)cc3)c(=O)n21)B1OC2CC3CC(C3(C)C)C2(C)O1,,NS3 serine protease,,,IC50,,<10 µM
O=c1cc(-c2ccc(O)c(O)c2)oc2cc(O)ccc12,J4,Replicase complex,SYBR Green,,inhibition,20 µM,35.4%
CC(=O)N[C@@H](CC(=O)O)C(=O)N[C@@H](CCC(=O)O)C(=O)N[C@H](C(=O)N[C@@H](CCC(=O)O)C(=O)N[C@@H](CC1CCCCC1)C(=O)N[C@@H](CS)C(=O)O)C(c1ccccc1)c1ccccc1,,HCV NS3 protease,,,IC50,,0.05 µM
O=c1c(O)c(-c2ccc(O)c(O)c2)oc2cc(O)c(O)c(O)c12,H77,Replicase complex,SYBR Green,genotype 1a,IC50,,2.8 µM
CC(=O)N[C@@H](CC(=O)O)C(=O)N[C@@H](CCC(=O)O)C(=O)N[C@H](C(=O)N[C@@H](CCC(=O)O)C(=O)N[C@H](C(=O)O)C1CCCCC1)C(c1ccccc1)c1ccccc1,,NS3/NS4A protease,,,IC50,,117 µM
NC(=O)c1ncn([C@@H]2O[C@H](COC(=O)c3ccc(S(=O)(=O)F)cc3)[C@@H](O)[C@H]2O)n1,,Nonstructural protein 3 NTPase/helicase,,,inhibition,300 µM,64%
CC[C@H](C)[C@H](NC(=O)[C@@H](NC(C)=O)C(c1ccccc1)c1ccccc1)C(=O)N[C@@H](CC1CCCCC1)C(=O)N[C@@H](CS)C(=O)O,,HCV NS3 protease,,,IC50,,100 µM
NC(=O)c1cccc(S(=O)(=O)NC(=O)Nc2cscc2-c2nc(C(=O)O)c(O)c(=O)[nH]2)c1,,HCV polymerase,,,IC50,,<25 µM
O=C1CC(c2ccc(O)cc2)Oc2ccccc21,J4,Replicase complex,SYBR Green,,inhibition,20 µM,9.3%
CC[C@H](C)[C@H](NC(=O)[C@H](CC(C)C)NC(=O)[C@H](CCC(=O)O)NC(=O)[C@H](CC(=O)O)NC(=O)O)C(=O)N[C@@H](CC1CCCCC1)C(=O)N[C@@H](CS)C(=O)O,,NS3/NS4A protease,,,IC50,,0.06 µM
O=c1cc(-c2ccc(O)c(O)c2)oc2ccccc12,J4,Replicase complex,SYBR Green,,inhibition,20 µM,45.4%
O=C(Nc1ccc(-c2nc3ccccc3[nH]2)cc1)c1ccc(C(=O)Nc2ccc(-c3nc4ccccc4[nH]3)cc2)cc1,,Nonstructural protein 3 NTPase/helicase,,,IC50,,<25 µg/mL
CC[C@H](C)[C@H](NC(=O)[C@@H](NC(C)=O)C(c1ccccc1)c1ccccc1)C(=O)N[C@@H](CC1CCCCC1)C(=O)N[C@@H](CS)C(=O)O,,Full-length NS3,,,IC50,,3.507 µM
O=C(O)c1nc(-c2cccc(OCc3ccc(F)cc3Cl)c2)[nH]c(=O)c1O,,HCV polymerase,,,IC50,,<100 µM
CC[C@H](NC(=O)[C@H](c1ccccc1)N1CCC(NC(=O)OC(C)(C)C)(C(C)C)C1=O)B1OC2CC3CC(C3(C)C)C2(C)O1,,NS3 serine protease,,,IC50,,<50 µM
CC(=O)N[C@H](C(=O)N[C@@H](CCC(=O)O)C(=O)N[C@@H](CC1CCCCC1)C(=O)N[C@@H](CS)C(=O)O)C(c1ccccc1)c1ccccc1,,Full-length NS3,,,IC50,,1.837 µM
NCc1cccnc1,,Nonstructural protein 3 NTPase/helicase,,,IC50,,>25 µg/mL
C=C(C)c1ccc2c(c1)nc(-c1ccc(OCc3cc(NC(=O)OC)ccc3-c3ccc(Cl)cc3)cc1)n2C1CCCCC1,,NS3 serine protease,,,IC50,,0.017 µM
O=C(CCCCCCC(=O)Nc1nc2ccccc2[nH]1)Nc1nc2ccccc2[nH]1,,Nonstructural protein 3 NTPase/helicase,,,IC50,,>25 µg/mL
CCCN(NC(=O)[C@@H]1CCCN1C(=O)[C@@H](NC(=O)[C@@H](NC(=O)[C@@H](CC(C(=O)O)C(=O)O)NC(=O)[C@H](CCC(=O)O)NC(=O)OC)C(C)C)C(C)C)C(=O)OCCl,,NS3 serine protease,,,Ki,,0.03 µM
COc1ccccc1CNC(=O)Nc1cccc(-c2nc(C(=O)O)c(O)c(=O)[nH]2)c1,,HCV polymerase,,,IC50,,<100 µM
CSCC[C@H](NC(=O)[C@H](CCC(=O)O)NC(=O)[C@H](CC(=O)O)NC(C)=O)C(=O)N[C@@H](CCC(=O)O)C(=O)N[C@@H](Cc1ccc2ccccc2c1)C(=O)N[C@@H](CS)C(=O)O,,Full-length NS3,,,IC50,,0.7348 µM
O=C(O)c1nc(-c2sccc2NC(=O)C2CCNCC2)[nH]c(=O)c1O,,HCV polymerase,,,IC50,,<25 µM
O=c1c(O)c(-c2ccc(O)cc2O)oc2cc(O)cc(O)c12,J4,Replicase complex,SYBR Green,,inhibition,20 µM,69.3%
CC(=O)N[C@@H](CC(=O)O)C(=O)N[C@@H](CCC(=O)O)C(=O)N[C@@H](CC1CCCCC1)C(=O)N[C@@H](CCC(=O)O)C(=O)N[C@@H](CC1CCCCC1)C(=O)N[C@@H](CS)C(=O)O,,HCV NS3 protease,,,IC50,,0.14 µM
CCC[C@H](NC(=O)C1CN(C(=O)[C@@H](NC(=O)[C@@H](NC(=O)c2cnccn2)C(C)C)C(C)C)C[C@@H]1OC(=O)N1CCc2ccccc2C1)C(=O)C(=O)N1CC1C(=O)OC,,NS3 serine protease,,,Ki,,<1 µM
O=C(Nc1ccsc1-c1nc(C(=O)O)c(O)c(=O)[nH]1)OCc1cccc(OCc2ccccc2)c1,,HCV polymerase,,,IC50,,<25 µM
CC(=O)N[C@@H](CCC(=O)O)C(=O)N[C@@H](CC(=O)O)C(=O)N[C@H](C(=O)N[C@H](C(=O)N[C@@H](CS)C(=O)N[C@@H](CS)C(=O)O)C(C)C)C(C)C,,HCV NS3 protease,,,IC50,,5.3 µM
CC(=O)N[C@@H](CC(=O)O)C(=O)N[C@@H](CCC(=O)O)C(=O)N[C@H](C(=O)N[C@@H](CCCCN)C(=O)N[C@@H](CC1CCCCC1)C(=O)N[C@@H](CS)C(=O)O)C(c1ccccc1)c1ccccc1,,Full-length NS3,,,IC50,,2.07 µM
O=C(O)CCN(CCC(c1ccccc1)c1ccccc1)C(=O)[C@@H](NC(=O)[C@@H]1CCCC[C@H]1C(=O)O)c1ccc(Br)cc1,,NS3/NS4A protease,,,IC50,,2 µM
Nc1ncnc2c1ncn2[C@@H]1O[C@H](COC(=O)c2ccc(S(=O)(=O)F)cc2)[C@@H](O)[C@H]1O,,Nonstructural protein 3 NTPase/helicase,,,inhibition,300 µM,48%
O=C(NCCC1=CCCCC1)Nc1ccsc1-c1nc(C(=O)O)c(O)c(=O)[nH]1,,HCV polymerase,,,IC50,,<25 µM
Nc1ccc(-c2nc3ccccc3s2)cc1,,Nonstructural protein 3 NTPase/helicase,,,IC50,,>25 µg/mL
CC[C@H](C)[C@H](NC(=O)[C@@H](NC(=O)[C@H](CCC(=O)O)NC(=O)[C@H](CC(=O)O)NC(C)=O)C(c1ccccc1)c1ccccc1)C(=O)N[C@@H](CC1CCCCC1)C(=O)N[C@@H](CS)C(=O)O,,NS3/NS4A protease,,,IC50,,0.06 µM
Nc1nncs1,,Nonstructural protein 3 NTPase/helicase,,,IC50,,>25 µg/mL
CC(=O)N[C@@H](CCC(=O)O)C(=O)N[C@@H](CC(C)C)C(=O)N[C@@H](CCC(=O)O)C(=O)N[C@@H](CC1CCCCC1)C(=O)N[C@@H](CS)C(=O)O,,NS3/NS4A protease,,,IC50,,2.6 µM
O=c1cc(-c2ccccc2)oc2ccc(O)cc12,J4,Replicase complex,SYBR Green,,inhibition,20 µM,18.5%
O=C(Nc1cccc(-c2nc(C(=O)O)c(O)c(=O)[nH]2)c1)c1cccc(OC(F)(F)F)c1,,HCV polymerase,,,IC50,,<100 µM
O=c1cc(-c2ccccc2)oc2c(O)c(O)ccc12,J4,Replicase complex,SYBR Green,,inhibition,20 µM,30.8%
CS(=O)(=O)c1ccc2nc(N)sc2c1,,Nonstructural protein 3 NTPase/helicase,,,IC50,,>25 µg/mL
CC[C@H](NC(=O)[C@H](CC1CCCCC1)NC(=O)[C@@H](NC(=O)[C@H](CC(C)C)NC(=O)c1cnccn1)[C@@H](C)CC)C(=O)C(=O)NCC(=O)O,,NS3 serine protease,,,Ki,,<0.01 µM
CC[C@H](NC(=O)[C@@H](NC(=O)[C@@H](NC(=O)[C@H](CC(=O)O)NC(=O)[C@H](CCC(=O)O)NC(C)=O)C(C)C)C(C)C)C(=O)N[C@H](C=O)C(C)C,,NS3/NS4A protease,,,IC50,,50 µM

Again, the opening 5 rows:

smiles | strain or isolate | target | method | conditions | read-out | dose | value
O=c1cc(-c2ccccc2)oc2cccc(O)c12 | J4 | Replicase complex | SYBR Green |  | inhibition | 20 µM | 14.5%
CC[C@H](C)[C@H](NC(=O)[C@@H](NC(=O)[C@H](CCC(=O)O)NC(C)=O)C(c1ccccc1)c1ccccc1)C(=O)N[C@@H](CC1CCCCC1)C(=O)N[C@@H](CS)C(=O)O |  | HCV NS3 protease |  |  | IC50 |  | 2.4 µM
O=C(O)CCN(CCC(c1ccccc1)c1ccccc1)C(=O)[C@@H](NC(=O)[C@@H]1CCCC[C@H]1C(=O)O)c1ccccc1 |  | NS3/NS4A protease |  |  | IC50 |  | 22 µM
O=C(NCc1ccccc1Cl)Nc1cscc1-c1nc(C(=O)O)c(O)c(=O)[nH]1 |  | HCV polymerase |  |  | IC50 |  | <25 µM
CC[C@H](C)[C@H](NC(=O)[C@H](CCC(=O)O)NC(=O)[C@H](CC(=O)O)NC(C)=O)C(=O)N[C@@H](CCC(=O)O)C(=O)N[C@@H](CC1CCCCC1)C(=O)N[C@@H](CS)C(=O)O |  | HCV NS3 protease |  |  | IC50 |  | 0.122 µM